Results on six molecules are retold here after ChEMBL document CHEMBL1671701, “Discovery of potent small-molecule inhibitors of multidrug-resistant Plasmodium falciparum using a novel miniaturized high-throughput luciferase-based assay” (Antimicrob Agents Chemother, 2010).

Structures are written as SMILES. This is a selection: effects in other tests are not listed, and their absence says nothing.

The assay relates to Plasmodium falciparum. Put plainly: Antiplasmodial activity against Plasmodium falciparum 3D7 infected in RBCs by firefly luciferase reporter gene assay. Background: A reporter such as luciferase makes a cellular process visible.
As for `COc1ccc(NC2CCN(CCc3ccccc3)CC2)cc1OC`, half-maximal inhibition (IC50) required 1.3 µM.
Next, `COc1cc(NC2CCN(Cc3ccccc3)CC2)cc(OC)c1`: 0.44 µM; `COc1cc(NC2CCN(CCc3ccccc3)CC2)cc(OC)c1`: 1.2 µM.
Then `Fc1cccc(NC2CCN(CCc3ccccc3)CC2)c1`, with 0.92 µM.
Next, `Brc1cccc(NC2CCN(CCc3ccccc3)CC2)c1`: 0.49 µM.
In the case of `Clc1cccc(NC2CCN(CCc3ccccc3)CC2)c1`, inhibition was half-maximal at 0.52 µM (IC50).
